Data as given in PubChem BioAssay AID1224833 (University of Georgia, 2016).
The whole screen tested about 12,000 reagents; shown is a part drawn at random. Of all reagents, about 5,600 (46%) are marked active. 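Active calls cover z-scores past 1 in both directions, so they include lowered as well as raised rotavirus replication.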 Unmarked entries are inactive. Reagents against one gene are numbered here.

Assay: 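Host factors restraining rotavirus as candidate antiviral genes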 (primary screen)
System: monkey MA104 kidney cells
Knock-down reagent: siRNA pool against human genes, 50 nM
Duration: 48 h knock-down before infection; read 24 h after infection
Conditions: infection with rotavirus strain RV3 two days after transfection; infectious dose for this stage not given
Measured: 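z-score of rotavirus antigen signal per well, from a fluorescent immunoassay, relative to non-targeting control wells on the same plate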
Scale: z-score vs non-targeting control: higher = more rotavirus replication than with non-targeting control
Hit rule: In these data the active calls have z-score vs non-targeting control at about -1 or lower, or at about 1 or higher
Calls: active = z-score beyond 1 either way; inactive = z-score within 1 of zero

| Gene | reagent | z-score vs non-targeting control |
| --- | --- | --- |
| SLCO1A2 | 1 | -0.184 |
| SH3GLB1 | 1 | -0.972 |
| B3GNT6 | 1 | -0.745 |
| TSPAN13 | 1 | -0.171 |
| SRRM2 | 1 | -1.67 (active) |
| NOMO1 | 1 | -1.44 (active) |
| MYL10 | 1 | -0.592 |
| GEMIN8 | 1 | 2.99 (active) |
| FAM32A | 1 | 1.04 (active) |
| RPL37A | 1 | 1.82 (active) |
| NPC1L1 | 1 | -0.403 |
| IFI44 | 1 | -0.638 |
| MMP11 | 1 | -0.519 |
| ZFPL1 | 1 | 0.821 |
| TMEM198 | 1 | 1.54 (active) |
| RPL17 | 1 | -2.62 (active) |
| OR52D1 | 1 | -1.56 (active) |
| TOR1AIP2 | 1 | 1.01 (active) |
| SUSD2 | 1 | -2.86 (active) |
| IFI27 | 1 | -1.26 (active) |
| LMBR1L | 1 | 0.698 |
| TF | 1 | -0.106 |
| RRBP1 | 1 | -0.776 |
| CNTRL | 1 | 0.802 |
| OR10AD1 | 1 | -0.683 |
| DHTKD1 | 1 | -0.664 |
| MAF1 | 1 | 0.273 |
| CYC1 | 1 | -1.91 (active) |
| TGFA | 1 | -3.03 (active) |
| HYKK | 1 | 0.62 |
| RIOX2 | 1 | -0.58 |
| STAU1 | 1 | -0.86 |
| BCAN | 1 | -1.08 (active) |
| FCGR2C | 1 | 0.266 |
| HRAS | 1 | -6.64 (active) |
| GPNMB | 1 | -0.88 |
| TPPP | 1 | -0.761 |
| EOMES | 1 | 1.12 (active) |
| LARGE2 | 1 | 0.638 |
| ZNF354B | 1 | -0.0325 |
| PLA1A | 1 | -1.51 (active) |
| NUP188 | 1 | -1.18 (active) |
| ZNF497 | 1 | -0.191 |
| NECTIN3 | 1 | 0.59 |
| POGLUT1 | 1 | -1.81 (active) |
| LILRA6 | 1 | 0.449 |
| ADAM19 | 1 | -0.99 |
| PSMD10 | 1 | -0.875 |
| OPLAH | 1 | -1.31 (active) |
| CCN1 | 1 | -1.55 (active) |
| KRTAP5-1 | 1 | -0.311 |
| SCRN2 | 1 | 0.887 |
| NDUFB1 | 1 | 1.15 (active) |
| GZMA | 1 | -0.602 |
| CLDN17 | 1 | -1.13 (active) |
| DYNC2H1 | 1 | 0.657 |
| RAB34 | 1 | -0.486 |
| MAB21L3 | 1 | -1.16 (active) |
| LRP6 | 1 | 1.13 (active) |
| ELP4 | 1 | 0.299 |
| VSTM4 | 1 | 1.1 (active) |
| ZNF785 | 1 | -0.517 |
| ATRAID | 1 | 1.31 (active) |
| UMPS | 1 | -1.65 (active) |
| PALM2AKAP2 | 1 | 0.673 |
| PALM2AKAP2 | 2 | 1.31 (active) |
| PALM2AKAP2 | 3 | 0.215 |
| SNAPC1 | 1 | -1.52 (active) |
| POU3F1 | 1 | -1.23 (active) |
| AMZ2 | 1 | 1.19 (active) |
| SPATS2 | 1 | -0.675 |
| AIP | 1 | 2.34 (active) |
| DPH2 | 1 | 0.0272 |
| AGXT | 1 | 1.55 (active) |
| LAIR1 | 1 | 1.99 (active) |
| ARHGAP17 | 1 | 0.402 |
| DNASE2B | 1 | -0.841 |
| TNIP3 | 1 | -1.89 (active) |
| PCDHA11 | 1 | -1.25 (active) |
| MND1 | 1 | -0.168 |
| TGM2 | 1 | 0.798 |
| PMS2 | 1 | 1.96 (active) |
| TMEM225 | 1 | -1.23 (active) |
| BAG5 | 1 | 0.82 |
| GPR75 | 1 | -1.51 (active) |
| ZNF695 | 1 | 0.469 |
| NOL12 | 1 | 2.36 (active) |
| CCDC33 | 1 | 0.466 |
| PRAME | 1 | -1.74 (active) |
| FGF18 | 1 | 0.525 |
| ARHGAP26 | 1 | -0.252 |
| ST8SIA1 | 1 | 1.09 (active) |
| MAGEA8 | 1 | -0.737 |
| TINAGL1 | 1 | -3.57 (active) |
| MOSPD2 | 1 | -0.577 |
| SCD5 | 1 | -1.96 (active) |
| F5 | 1 | 0.891 |
| OPTC | 1 | 0.265 |
| CMTM2 | 1 | 1.8 (active) |
| KIAA1143 | 1 | -0.0501 |
| BUD13 | 1 | -0.471 |
| ATP6V1H | 1 | -0.646 |
| UCP2 | 1 | -0.956 |
| GPR137 | 1 | 0.202 |
| EPS8 | 1 | -1.38 (active) |
| MT1A | 1 | -0.334 |
| SLC22A5 | 1 | 1.31 (active) |
| SNRPD1 | 1 | -2.02 (active) |
| CEACAM5 | 1 | 0.193 |
| CIDEC | 1 | 1.3 (active) |

Sorted by “z-score vs non-targeting control” (ascending): 9 of the entries above.
| Gene | reagent | z-score vs non-targeting control |
| --- | --- | --- |
| TNIP3 | 1 | -1.89 (active) |
| PCDHA11 | 1 | -1.25 (active) |
| TMEM225 | 1 | -1.23 (active) |
| DNASE2B | 1 | -0.841 |
| MND1 | 1 | -0.168 |
| ARHGAP17 | 1 | 0.402 |
| TGM2 | 1 | 0.798 |
| PMS2 | 1 | 1.96 (active) |
| LAIR1 | 1 | 1.99 (active) |
